Data reported in PMC4954732.
For at least one entry, the source does not settle the construct or the ends of the probe. For part of these data: A negative result means that nothing was seen under these conditions. For part of these data: A weaker result is weaker than the reference pair of the same experiment.

What was measured:
[1] = tested on: CBC (HapB/HapC/HapE) + HapX; test: SPR; details: HapX co-injected on preformed CBC/DNA, SPR on immobilised biotinylated duplexes, 1:1 model with mass transport, pH and temperature not stated (protocols of refs 19, 54), recombinant protein, label: 5' biotin on strand 1
[2] = tested on: CBC P88L (HapB/HapC/HapE P88L) (Aspergillus fumigatus); test: SPR; details: Kd only in figure; SPR on immobilised biotinylated duplexes, 1:1 model with mass transport; pH and temperature not stated (protocols of refs 19, 54); recombinant protein; label: 5' biotin on strand 1

Row | Sequence | binding result ([1]; synergistic, Kd only in figure) | binding result [2] | binding result ([1]; combinatorial recognition not detectable)
1 | GCTGAGCCGAATGAAAGTTGCCTAATTACTAAGGTGT (double strand) [cyp51A-293] | binds | binds more weakly | 
2 | GCTGAGCCGAATGAATCACGCGGTCCGGATGTGTGCT (double strand) [cyp51A-TR34] |  |  | no binding
